Measured values as given in patent publication US12427135B2 (priority 2019, dated 2025).
Read-outs that look alike come from different tables or passages of the source.

Molecular target: RTA (Ricinus communis (Castor bean), UniProt P02879)
Test: biochemical
Format: binding

Structure (SMILES)	Kd	Kd (read-out: KD)
O=C(O)c1cc2c(s1)-c1ccccc1CC2 [drawing 385]	210 µM	
Cc1cc(C)c(-c2ccc(C(=O)O)s2)c(C)c1 [RU-NT-075]		43 µM
